Data source: PubChem BioAssay AID1259414 (Drosophila RNAi Screening Center, 2018)

Test: 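Genome-wide screen for host control of endosymbiont load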 (primary screen)
Cell system: Drosophila JW18 cells infected with Wolbachia
Reagent: long dsRNA against Drosophila genes, 0.25 µg dsRNA per well of a 384-well plate
Timing: 5 days
Conditions: cells persistently infected with Wolbachia before knock-down; no added drug
Measurement: 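Imaged fluorescence in situ signal for Wolbachia 23S rRNA per DAPI-counted host cell, given as a robust z-score within each plate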
Reading the numbers: Wolbachia per cell robust z: higher = more Wolbachia per host cell than the plate typical
Active means: 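Active if absolute robust z reaches 1.5 in two or more of three replicates, leaving out multi- or no-target dsRNAs, genes unexpressed in JW18 and A1 wells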
The screen tested about 24,000 reagents; this is an unselected part of those that have a named target and a result. Of all reagents, about 1,210 (5%) are marked active. 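Inactive calls also include excluded dsRNAs with several or no targets, genes unexpressed in JW18, and well A1, regardless of score.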 A number with no mark means an inactive call. A plus sign joins genes that one reagent is predicted to hit.

no.	predicted target	amplicon	Wolbachia per cell robust z, rep 1	Wolbachia per cell robust z, rep 2	Wolbachia per cell robust z, rep 3
1	Edg91 (Ecdysone-dependent gene 91)	DRSC16657	-4.4	1.15	1.03
2	Sap-r (Saposin-related)	DRSC16849	1.02	0.439	-0.325
3	Sap-r (Saposin-related)	DRSC21916	-1.62	-1.08	0.529
4	Sap-r (Saposin-related)	DRSC27246	0.286	-0.926	-2.51
5	CG34393	DRSC00419	0.874	-0.103	-0.33
6	CG34393	DRSC00710	-0.533	-0.2	0.681
7	CG34393	DRSC24621	-1.51	0.347	-0.917
8	CG34393	DRSC26763	-7.5	0.063	-8.35
9	RSG7 (Regulator of G-protein signaling 7)	DRSC20274	-3.96	0.259	0.625
10	RSG7 (Regulator of G-protein signaling 7)	DRSC22852	0.396	-3.36	0.22
11	uex (unextended)	DRSC20786	-0.585	-0.479	-0.325
12	uex (unextended)	DRSC27422	0.0934	-2.21	-0.921
13	uex (unextended)	DRSC40575	-0.143	0.87	0.316
14	Tmx3 (Thioredoxin-related transmembrane protein 3)	DRSC10471	-0.0815	-1.1	-0.794
15	CG13403	DRSC19535	1.17	0.627	0.699
16	CG13403	DRSC26850	-0.292	0.413	0.794
17	CG6420	DRSC16035	-1.44	0.898	0.545
18	CHKov2 (CHK domain ov2)	DRSC14262	-1.85	-0.335	-0.132
19	CHKov2 (CHK domain ov2)	DRSC28882	0.0336	0.585	0.101
20	eIF4A (eukaryotic translation initiation factor 4A)	DRSC03526	4.22 (active)	3.22	0.787
21	eIF4A (eukaryotic translation initiation factor 4A)	DRSC26043	4.95 (active)	3.33	4.34
22	Hsp60A (Heat shock protein 60A)	DRSC20254	-0.662	0.298	0.461
23	cuff (cutoff)	DRSC06315	-0.412	-0.1	-2.57
24	Noa36	DRSC16761	-0.804	1.07	-0.691
25	CG15756	DRSC19721	-0.231	-1.34	0.0851
26	CG15756	DRSC24288	0.308	2.09	-0.447
27	CG15529	DRSC15066	0.0973	0.22	-0.364
28	CG14720	DRSC14942	-0.934	0.245	-0.0213
29	kay (kayak)	DRSC13962	0.0849	-1.58	-0.175
30	kay (kayak)	DRSC16977	3.1 (active)	3.41	3.07
31	kay (kayak)	DRSC40688	0.487	-0.994	1.38
32	Gnpat (Glyceronephosphate O-acyltransferase)	DRSC16960	-0.0684	0.988	0.731
33	CG32639	DRSC18972	-0.171	-1.19	-9.67
34	CG14262	DRSC14757	-4.11	1.07	0.774
35	CG11555	DRSC00315	1.23	-0.53	0.348
36	CG11555	DRSC24179	-9.54	-0.227	-0.193
37	CG32188	DRSC09510	0.669	0.652	-0.704

Targets above whose gene name starts with E or e:
predicted target	amplicon	Wolbachia per cell robust z, rep 1	Wolbachia per cell robust z, rep 2	Wolbachia per cell robust z, rep 3
Edg91 (Ecdysone-dependent gene 91)	DRSC16657	-4.4	1.15	1.03
eIF4A (eukaryotic translation initiation factor 4A)	DRSC03526	4.22 (active)	3.22	0.787
eIF4A (eukaryotic translation initiation factor 4A)	DRSC26043	4.95 (active)	3.33	4.34

Additional entries:
no.	predicted target	amplicon	Wolbachia per cell robust z, rep 1	Wolbachia per cell robust z, rep 2	Wolbachia per cell robust z, rep 3
38	Pi3K21B	DRSC00771	-0.1	0.524	0.0654
39	ALiX (ALG-2 interacting protein X)	DRSC14564	0.812	-2.39	-1.09
40	ALiX (ALG-2 interacting protein X)	DRSC27006	-0.0281	-0.303	-0.379
41	Ttc19 (Tetratricopeptide repeat domain 19)	DRSC02474	-7.72	-0.602	-0.138
42	EndoU (Endoribonuclease U-specific)	DRSC15472	0.234	-0.336	-0.00582
43	Jon65Aiv (Jonah 65Aiv)	DRSC10644	-0.526	-0.736	-1.58
44	Jon65Aiv (Jonah 65Aiv)	DRSC25179	0.793	-3.99	-0.536
45	CG5348	DRSC06933	0.407	0.219	0.126
46	CG15706	DRSC06577	0.214	-0.134	-0.0961
47	Rab5	DRSC00777	0.361 (active)	1.86	1.54
48	Rab5	DRSC23710	0.279	3	1.11
49	RpL10 (Ribosomal protein L10)	DRSC11947	1.65 (active)	1.01	2.98
50	FBXO11 (F-box protein 11)	DRSC16497	0.981	0.358	0.706
51	CG11807	DRSC06087	0.762	0.475	0.0892
52	CG43078	DRSC10292	-0.662	0.647	0.12
53	CG43078	DRSC10608	-1.3	-3.48	0.0769
54	CG43078	DRSC21541	-0.374	-1.05	0.365
55	CG43078	DRSC22327	0.582	0.92	0.263
56	CG43078	DRSC27481	0.00039	-0.123	-9.94
57	Sf3b2 (Splicing factor 3b subunit 2)	DRSC00619	2.7 (active)	2.73	5.04
58	CG10853	DRSC08164	0.242	-0.329	-5.78
59	CG10853	DRSC23600	-0.344	-2.04	0.105
60	Hsc20 (Heat shock protein cognate 20)	DRSC38648	-1.05	-1.48	-0.0316
61	PGRP-LD + Pmi	DRSC41276	1.15	-0.941	0.676
62	Ipk2 (Inositol phosphate kinase 2)	DRSC00357	0.0426	-1.1	-0.816
63	Ipk2 (Inositol phosphate kinase 2)	DRSC24511	-0.675	-0.43	-0.483
64	mt:ATPase6 (mitochondrial ATPase subunit 6)	DRSC40608	-0.157	-0.327	-0.702
65	Gk1 (Glycerol kinase 1)	DRSC08533	-0.0762	0.74	0.356
66	Gk1 (Glycerol kinase 1)	DRSC08534	0.146	0.186	-1.64
67	CG42337	DRSC11686	1.67	-0.612	1.06
68	CG42337	DRSC23099	-0.995	-4.27	-0.725
69	CG42337	DRSC27038	-2.17	-0.166	0.297
